Experiments:
Assay in all cases: cell-based or functional assay
[1] = molecular target: HIV envelope glycoprotein gp120 of virus VS003 (HIV-1)
[2] = molecular target: HIV envelope glycoprotein gp120 of virus VS046 (HIV-1)
[3] = molecular target: HIV envelope glycoprotein gp120 of virus VS001 (HIV-1)
[4] = molecular target: HIV envelope glycoprotein gp120 of virus VS026 (HIV-1)
[5] = molecular target: HIV envelope glycoprotein gp120 of virus VS052 (HIV-1)
[6] = molecular target: HIV envelope glycoprotein gp120 of virus US657 (HIV-1)
[7] = molecular target: HIV envelope glycoprotein gp120 of virus VS043 (HIV-1)
[8] = molecular target: HIV envelope glycoprotein gp120 of virus VS004 (HIV-1)
[9] = molecular target: HIV envelope glycoprotein gp120 of virus VS003 (HIV-1); remark: listed apart in the source
[10] = molecular target: HIV envelope glycoprotein gp120 of virus VS046 (HIV-1); remark: listed apart in the source
[11] = molecular target: HIV envelope glycoprotein gp120 of virus VS001 (HIV-1); remark: listed apart in the source
[12] = molecular target: HIV envelope glycoprotein gp120 of virus VS026 (HIV-1); remark: listed apart in the source
[13] = molecular target: HIV envelope glycoprotein gp120 of virus VS052 (HIV-1); remark: listed apart in the source
[14] = molecular target: HIV envelope glycoprotein gp120 of virus US657 (HIV-1); remark: listed apart in the source
[15] = molecular target: HIV envelope glycoprotein gp120 of virus VS043 (HIV-1); remark: listed apart in the source
[16] = molecular target: HIV envelope glycoprotein gp120 of virus VS004 (HIV-1); remark: listed apart in the source
[17] = molecular target: HIV envelope glycoprotein gp120 of virus VS002 (HIV-1)
[18] = molecular target: HIV envelope glycoprotein gp120 of virus VS011 (HIV-1)
[19] = molecular target: HIV envelope glycoprotein gp120 of virus VS017 (HIV-1)
[20] = molecular target: HIV envelope glycoprotein gp120 of virus VS030 (HIV-1)
[21] = molecular target: HIV envelope glycoprotein gp120 of virus VS032 (HIV-1)
[22] = molecular target: HIV envelope glycoprotein gp120 of virus VS033 (HIV-1)
[23] = molecular target: HIV envelope glycoprotein gp120 of virus VS034 (HIV-1)
[24] = molecular target: HIV envelope glycoprotein gp120 of virus VS038 (HIV-1)
[25] = molecular target: HIV envelope glycoprotein gp120 of virus VS039 (HIV-1)
[26] = molecular target: HIV envelope glycoprotein gp120 of virus VS042 (HIV-1)
[27] = molecular target: HIV envelope glycoprotein gp120 of virus VS044 (HIV-1)
[28] = molecular target: HIV envelope glycoprotein gp120 of virus VS053 (HIV-1)
[29] = molecular target: HIV-1 envelope glycoprotein gp120 of virus BaL (HIV-1)
[30] = molecular target: HIV-1 envelope glycoprotein gp120 of virus 92US727 (HIV-1)
[31] = molecular target: HIV-1 envelope glycoprotein gp120 of virus 92HT593 (HIV-1)
[32] = molecular target: HIV-1 envelope glycoprotein gp120 of virus 92US657 (HIV-1)
[33] = molecular target: HIV-1 envelope glycoprotein gp120 of virus 92US712 (HIV-1)
[34] = molecular target: HIV-1 envelope glycoprotein gp120 of virus 7467 (HIV-1)
[35] = molecular target: HIV-1 envelope glycoprotein gp120 of virus CH058 (HIV-1)
[36] = molecular target: HIV-1 envelope glycoprotein gp120 of virus 7015 (HIV-1)
[37] = molecular target: HIV-1 envelope glycoprotein gp120 of virus RHPA (HIV-1)
[38] = molecular target: HIV-1 envelope glycoprotein gp120 of virus 1489 (HIV-1)
[39] = molecular target: HIV-1 envelope glycoprotein of virus WITO (HIV-1)
[40] = molecular target: HIV-1 envelope glycoprotein gp120 of virus 8176 (HIV-1)
[41] = molecular target: HIV-1 envelope glycoprotein gp120 of virus 8318 (HIV-1)
[42] = molecular target: HIV-1 envelope glycoprotein gp120 of virus 7576 (HIV-1)
[43] = molecular target: HIV-1 envelope glycoprotein gp120 of virus 8339 (HIV-1)
[44] = molecular target: HIV-1 envelope glycoprotein gp120 of virus 7051 (HIV-1)
[45] = molecular target: HIV-1 envelope glycoprotein gp120 of virus 8089 (HIV-1)
[46] = molecular target: HIV-1 envelope glycoprotein gp120 of virus 8106 (HIV-1)
[47] = molecular target: HIV-1 envelope glycoprotein gp120 of virus 8359 (HIV-1)
[48] = molecular target: HIV-1 envelope glycoprotein gp120 of virus 8117 (HIV-1)
[49] = molecular target: HIV-1 envelope glycoprotein gp120 of virus CH077 (HIV-1)
[50] = molecular target: HIV-1 envelope glycoprotein gp120 of virus CH106 (HIV-1)
[51] = molecular target: HIV-1 envelope glycoprotein gp120 of virus REJO (HIV-1)
[52] = molecular target: HIV-1 envelope glycoprotein gp120 of virus THRO (HIV-1)
[53] = molecular target: HIV-1 envelope glycoprotein gp120 of virus 1413 (HIV-1)
[54] = molecular target: HIV-1 envelope glycoprotein gp120 of virus 8320 (HIV-1)
[55] = molecular target: HIV-1 envelope glycoprotein gp120 of virus 7103 (HIV-1)
[56] = molecular target: HIV-1 envelope glycoprotein gp120 of virus 8134 (HIV-1)
[57] = molecular target: HIV-1 envelope glycoprotein gp120 of virus 7141 (HIV-1)
[58] = molecular target: HIV-1 envelope glycoprotein gp120 of virus 8110 (HIV-1)
[59] = molecular target: HIV-1 envelope glycoprotein gp120 of virus 7714 (HIV-1)
[60] = molecular target: HIV-1 envelope glycoprotein gp120 of virus 1003 (HIV-1)
[61] = molecular target: HIV-1 envelope glycoprotein gp120 of virus 7595 (HIV-1)
[62] = molecular target: HIV-1 envelope glycoprotein gp120 of virus 8398 (HIV-1)
[63] = molecular target: HIV-1 envelope glycoprotein gp120 of virus 7552 (HIV-1)
[64] = molecular target: HIV-1 envelope glycoprotein gp120 of virus 7007 (HIV-1)
[65] = molecular target: HIV-1 envelope glycoprotein gp120 of virus 7596 (HIV-1)
[66] = molecular target: HIV-1 envelope glycoprotein gp120 of virus CH040 (HIV-1)
[67] = molecular target: HIV-1 envelope glycoprotein gp120 of virus 7352 (HIV-1)
[68] = molecular target: HIV-1 envelope glycoprotein gp120 of virus 1012 (HIV-1)

B1: Antibody A-1 (antibody, human IgG1, kappa)
heavy: QVQLLQSGAAVTKPGASVRVSCEASGYNIRDYFIHWWRQAPGQGLQWVGWINPKTGQPNNPRQFQGRVSLTRHASWDFDTFSFYMDLKALRSDDTAVYFCARQRSDYWDFDVWGSGTQVTVSSASTKGPSVFPLAPSSKSTSGGTAALGCLVKDYFPEPVTVSWNSGALTSGVHTFPAVLQSSGLYSLSSVVTVPSSSLGTQTYICNVNHKPSNTKVDKKVEPKSCDKTHTCPPCPAPELLAGPDVFLFPPKPKDTLMISRTPEVTCVVVDVSHEDPEVKFNWYVDGVEVHNAKTKPREEQYNSTYRVVSVLTVLHQDWLNGKEYKCKVSNKALPLPEEKTISKAKGQPREPQVYTLPPSREEMTKNQVSLTCLVKGFYPSDIAVEWESNGQPENNYKTTPPVLDSDGSFFLYSKLTVDKSRWQQGNVFSCSVLHEALHSHYTQKSLSLSPGK
light: not shown
[1]
  HIV neutralization IC50: 0.03 µg/mL
[2]
  HIV neutralization IC50: 0.03 µg/mL
[3]
  HIV neutralization IC50: 0.08 µg/mL
[4]
  HIV neutralization IC50: 0.26 µg/mL
[5]
  HIV neutralization IC50: 0.38 µg/mL
[6]
  HIV neutralization IC50: 0.86 µg/mL
[7]
  HIV neutralization IC50: 1.47 µg/mL
[8]
  HIV neutralization IC50: 3.42 µg/mL
[9]
  Avg. IC50 (HIV neutralization): 0.027 µg/mL
[10]
  Avg. IC50 (HIV neutralization): 0.029 µg/mL
[11]
  Avg. IC50 (HIV neutralization): 0.08 µg/mL
[12]
  Avg. IC50 (HIV neutralization): 0.259 µg/mL
[13]
  Avg. IC50 (HIV neutralization): 0.381 µg/mL
[14]
  Avg. IC50 (HIV neutralization): 0.864 µg/mL
[15]
  Avg. IC50 (HIV neutralization): 1.47 µg/mL
[16]
  Avg. IC50 (HIV neutralization): 3.42 µg/mL
[17]
  Avg. IC50 (HIV neutralization): 0.024 µg/mL
[18]
  Avg. IC50 (HIV neutralization): 0.147 µg/mL
[19]
  Avg. IC50 (HIV neutralization): 0.443 µg/mL
[20]
  Avg. IC50 (HIV neutralization): 1.61 µg/mL
[21]
  Avg. IC50 (HIV neutralization): 0.256 µg/mL
[22]
  Avg. IC50 (HIV neutralization): 0.207 µg/mL
[23]
  Avg. IC50 (HIV neutralization): 0.358 µg/mL
[24]
  Avg. IC50 (HIV neutralization): 0.21 µg/mL
[25]
  Avg. IC50 (HIV neutralization): 0.121 µg/mL
[26]
  Avg. IC50 (HIV neutralization): 3.17 µg/mL
[27]
  Avg. IC50 (HIV neutralization): 0.312 µg/mL
[28]
  Avg. IC50 (HIV neutralization): 0.53 µg/mL

B2: Antibody 1.1.64-1 (antibody, human IgG1, kappa)
heavy: B1 heavy
light: not shown
[29]
  HIV Neutralization Potency: 0.08 µg/mL
[30]
  HIV Neutralization Potency: 0.79 µg/mL
[31]
  HIV Neutralization Potency: 0.35 µg/mL
[32]
  HIV Neutralization Potency: 0.79 µg/mL
[33]
  HIV Neutralization Potency: 0.06 µg/mL
[34]
  HIV Neutralization Potency: 0.03 µg/mL
[35]
  HIV Neutralization Potency: 0.03 µg/mL
[36]
  HIV Neutralization Potency: 0.6 µg/mL
[37]
  HIV Neutralization Potency: 0.09 µg/mL
[38]
  HIV Neutralization Potency: 0.13 µg/mL
[39]
  HIV Neutralization Potency: 0.13 µg/mL
[40]
  HIV Neutralization Potency: 0.24 µg/mL
[41]
  HIV Neutralization Potency: 0.23 µg/mL
[42]
  HIV Neutralization Potency: 0.41 µg/mL
[43]
  HIV Neutralization Potency: > 50 µg/mL
[44]
  HIV Neutralization Potency: 0.23 µg/mL
[45]
  HIV Neutralization Potency: 0.32 µg/mL
[46]
  HIV Neutralization Potency: 1.08 µg/mL
[47]
  HIV Neutralization Potency: 0.48 µg/mL
[48]
  HIV Neutralization Potency: 1.13 µg/mL
[49]
  HIV Neutralization Potency: 0.03 µg/mL
[50]
  HIV Neutralization Potency: 0.99 µg/mL
[51]
  HIV Neutralization Potency: 0.04 µg/mL
[52]
  HIV Neutralization Potency: 9.6 µg/mL
[53]
  HIV Neutralization Potency: 2.35 µg/mL
[54]
  HIV Neutralization Potency: 0.37 µg/mL
[55]
  HIV Neutralization Potency: 1.01 µg/mL
[56]
  HIV Neutralization Potency: 0.29 µg/mL
[57]
  HIV Neutralization Potency: 1.99 µg/mL
[58]
  HIV Neutralization Potency: 2.62 µg/mL
[59]
  HIV Neutralization Potency: 7.48 µg/mL
[60]
  HIV Neutralization Potency: 1.25 µg/mL
[61]
  HIV Neutralization Potency: 4.48 µg/mL
[62]
  HIV Neutralization Potency: > 50 µg/mL
[63]
  HIV Neutralization Potency: 16.1 µg/mL
[64]
  HIV Neutralization Potency: > 50 µg/mL
[65]
  HIV Neutralization Potency: 16.2 µg/mL
[66]
  HIV Neutralization Potency: 18.6 µg/mL
[67]
  HIV Neutralization Potency: 40.1 µg/mL
[68]
  HIV Neutralization Potency: 1.4 µg/mL
